This is one part of the list. Active and inactive are the calls of the source. Rule as the data show it: inconclusive = inhibition above about 80% without an active follow-up result; inactive = below that; test concentration not stated here.
Test: M. tuberculosis H37Rv growth inhibitors, H37Rv strain (AID 1626);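 also: bacteria incubated seven days before Alamar blue readout; 0% = bacteria only wells and 100% = bacteria with antibiotic wells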
Conditions: hits give high values, concentration not given here

Structure (SMILES)	inhibition
c1ccc(CN2CCC(Nc3ccccc3)CC2)cc1	inactive: -8.35%
N#Cc1ccc(C(=O)NCC2(N3CCCCC3)CCCCC2)cc1	inactive: -1.94%
O=C(OC1CN2CCC1CC2)C1c2ccccc2C=Cc2ccccc21 (centres undefined)	inactive: -3.16%
COc1ccc(C(=O)NCC2(N3CCOCC3)CCCCC2)cc1OC	inactive: -7.32%
CCCOc1ccc(C)cc1CN(CCCl)CCCl	inactive: -0.22%
CCC(CO)(C(=O)OC1CN2CCC1CC2)c1ccccc1 (centres undefined)	inactive: -3.14%
COc1cc(OC)cc(C(=O)NCC2(N3CCOCC3)CCCCC2)c1	inactive: -1.37%
CC(C)(C)OC(=O)N1CCC(Nc2ccccc2)CC1	inactive: -6.36%
CCOc1ncccc1C(=O)NCC1(N2CCOCC2)CCCCC1	inactive: -21.4%
CN(C)c1ccc(C(=O)NCC2(N3CCCCC3)CCCCC2)cc1	inactive: -3.92%
CCN1CCC(Nc2cccc(F)c2)CC1	inactive: 4.65%
Fc1ccccc1NC1CCN(Cc2ccccc2)CC1	inactive: 3.36%
Cc1ccc(OCC(C)C)c(CN(CCCl)CCCl)c1	inactive: -7.3%
COc1ccc(NC2CCN(CCc3ccccc3)CC2)c(OC)c1	inactive: -3.33%
CCOc1ccc(C)cc1CN(CCCl)CCCl	inactive: -5.9%
CCOC(=O)N1CCC(Nc2ccc(OC)cc2)CC1	inactive: 0.65%
O=C(OC1CN2CCC1CC2)C1c2ccccc2Oc2ccccc21 (centres undefined)	inactive: 8.38%
N#CC1(Nc2ccccc2)CCN(Cc2ccccc2)CC1	inactive: -6.78%
O=C(NCC1(N2CCOCC2)CCCCC1)c1cc2ccccc2o1	inactive: 1.19%
COc1ccc(C(=O)NCC2(N3CCCCC3)CCCCC2)c(OC)c1OC	inactive: 5.52%
CN1CCC(Nc2cccc(F)c2)CC1	inactive: 7.64%
COc1ccc(CN(CCCl)CCCl)cc1Cl	inactive: -2.75%
CN(C)c1cccc(C(=O)NCC2(N3CCCCC3)CCCCC2)c1	inactive: 1.36%
CC(C)c1ccc(NC2CCN(C(=O)OC(C)(C)C)CC2)cc1	inactive: 7.49%
COc1ccc(NC2CCN(C(=O)OC(C)(C)C)CC2)cc1	inactive: 1.24%
CN1CCN(CCOC(=O)C(O)(c2ccccc2)c2ccccc2)CC1	inactive: -7.3%
O=C(NCC1(N2CCOCC2)CCCCC1)c1cc(=O)[nH]c2ccccc12	inactive: -3.25%
O=C(NCC1(N2CCCCC2)CCCCC1)c1cccc([N+](=O)[O-])c1	inactive: 1.74%
N#CC1(Nc2ccccc2)CCN(CCc2ccccc2)CC1	inactive: -0.73%
